The target of the experiment is Human immunodeficiency virus type 1 protease (Human immunodeficiency virus 1, UniProt Q72874, A71V/E35D/G73S/I15V/I62V/L10I/L63P/L90M/N37S/R41K). In words: Inhibition of HIV1 recombinant protease L10I/I15V/E35D/N37S/R41K/I62V/L63P/A71V/G73S/L90M mutant expressed in Escherichia coli by spectrophotometric assay.

Regarding `CC(C)CN(C[C@@H](O)[C@H](Cc1ccccc1)NC(=O)O[C@H]1CCOC1)S(=O)(=O)c1ccc(N)cc1`, the Ki was found to be 0.15 nM.

Broadly, the Ki is a dissociation constant, usually derived from enzyme kinetics or from competition with a known ligand.
